## Share of PSTVd loop 6 variants by leaf site

From the data files of Wu et al. 2024, doi:10.1371/journal.ppat.1012142.

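Three N. benthamiana plants were inoculated with the whole mutant pool. Progeny were sequenced from the inoculated region (day 5), the margin of the inoculated leaf (day 10) and systemic leaves (day 12).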

Region: loop 6 of PSTVd (intermediate strain), upper and lower strand joined, each 5' to 3', the first 5 letters being the upper strand, closing pairs included. Wild type: UGACCGCGAG. Varied positions (N): UNNNCGNNNG.

Values are reads per thousand in the sample; higher means more abundant, 0 means not found.
Each site shows the three plants.
"Pool" is the share in the plasmid pool used as inoculum, on the same scale.
The inoculated region was read from the minus strand, the other sites from the plus strand.
IR is the inoculated region, LM the leaf margin, Sys the systemic leaves.
Sequences that differ at fixed positions probably stem from PCR or sequencing errors, and defective variants can be carried along by functional ones.

sequence,pool,IR,LM,Sys
UAAACGAUUG,0.261,0.0695 / 0.180 / 0.0369,0 / 0 / 0.0928,0 / 0 / 0
UAACCGAUAG,0.301,0.678 / 0.736 / 0.627,0.110 / 0.202 / 0.209,0 / 0 / 0.0410
UAACCGUCGG,0.196,0.0695 / 0.126 / 0.0738,0 / 0 / 0.0232,0 / 0 / 0
UAACCGUGAG,0.196,0.782 / 0.683 / 0.461,0.0552 / 0.202 / 0.0696,0 / 0 / 0
UAAGCAAAGG,0.0131,0 / 0 / 0,0 / 0 / 0,0 / 0 / 0
UAAGCGGCAG,0.196,0.591 / 0.719 / 0.516,0.138 / 0.0504 / 0,0 / 0.0404 / 0.0205
UACGCGGCGG,0.222,0.0521 / 0.0539 / 0.0738,0 / 0 / 0.0232,0 / 0 / 0
UACGCGUCUG,0.261,0.261 / 0.0539 / 0.111,0.0276 / 0 / 0.0232,0 / 0 / 0
UAGCCGAGCG,0.222,0.104 / 0.0898 / 0.0922,0 / 0.0252 / 0.0464,0 / 0 / 0
UAGCCGAGUG,0.235,0.156 / 0.144 / 0.148,0 / 0.0252 / 0,0 / 0 / 0
UAGCCGUUGG,0.248,0.156 / 0.108 / 0.0738,0 / 0.126 / 0.0696,0 / 0 / 0
UAUACGGGCG,0.288,0.782 / 0.467 / 0.516,0.0552 / 0.126 / 0.0464,0 / 0.0606 / 0.0615
UAUCCGCACG,0.170,0.799 / 0.521 / 0.369,0.0276 / 0.151 / 0.0232,0 / 0 / 0
UAUCCGUACG,0.275,0.122 / 0.0539 / 0.0553,0.0276 / 0 / 0,0 / 0 / 0
UAUCCGUCGG,0.235,0.0695 / 0.0898 / 0.0922,0 / 0 / 0,0 / 0 / 0
UAUGCGCGGG,0.248,0.174 / 0.126 / 0.111,0.0276 / 0 / 0,0 / 0 / 0
UAUGCGCUUG,0.288,0.0174 / 0.108 / 0.111,0 / 0 / 0,0 / 0 / 0
UAUGCGUUCG,0.248,0.0869 / 0.0539 / 0.0184,0 / 0 / 0,0 / 0 / 0
UAUUCGACCG,0.222,0.0348 / 0.144 / 0.0738,0 / 0 / 0,0 / 0 / 0
UAUUCGGCCG,0.235,0.678 / 0.539 / 0.498,0.0276 / 0.0504 / 0,0 / 0 / 0
UCAACGAGGG,0.0915,0.139 / 0.0539 / 0.0369,0.0276 / 0 / 0,0 / 0 / 0
UCAACGAUGG,0.248,0.139 / 0.0539 / 0,0 / 0 / 0,0 / 0 / 0
UCACCGCUAG,0.118,0.782 / 0.575 / 0.443,0.138 / 0.101 / 0.139,0 / 0 / 0
UCACCGUAAG,0.0523,0.417 / 0.485 / 0.461,0.0552 / 0 / 0.139,0 / 0 / 0
UCACCGUCUG,0.196,0.0695 / 0.0359 / 0.166,0 / 0 / 0.0232,0 / 0 / 0
UCAUCGGUAG,0.222,0.191 / 0.0539 / 0.0369,0 / 0 / 0,0 / 0 / 0
UCCACGCCUG,0.183,0.0869 / 0.0539 / 0.0738,0 / 0 / 0,0 / 0 / 0
UCCACGGAAG,0.131,0.191 / 0.0539 / 0.0553,0 / 0 / 0,0 / 0 / 0
UCCCCAGCGG,0.0131,0 / 0 / 0,0 / 0 / 0,0 / 0 / 0
UCCCCGGCUG,0.405,0.139 / 0.0359 / 0.0553,0 / 0 / 0,0 / 0 / 0
UCCUCGCCUG,0.196,0.104 / 0.126 / 0.0738,0.0276 / 0 / 0.0232,0 / 0 / 0
UCGACGGGCG,0.157,0.817 / 0.808 / 0.498,0.0276 / 0 / 0.0696,0 / 0 / 0
UCGACGGUCG,0.170,0.122 / 0.0898 / 0.0922,0 / 0 / 0,0 / 0 / 0
UCGCCGAGGG,0.157,0.104 / 0.108 / 0.0738,0 / 0 / 0,0 / 0 / 0
UCGUCGAAGG,0.183,0.0695 / 0.0719 / 0.0553,0 / 0 / 0,0 / 0 / 0
UCGUCGAGAG,0.235,0.156 / 0.216 / 0.0922,0.0552 / 0 / 0,0 / 0 / 0
UCGUCGUACG,0.275,0.174 / 0.162 / 0.148,0 / 0.252 / 0,0 / 0 / 0
UCUACGAACG,0.170,0.191 / 0.162 / 0.0738,0.0276 / 0 / 0.0232,0 / 0 / 0.0205
UGACCGCACG,0.235,0.0869 / 0.108 / 0.369,0.248 / 0.177 / 0.0232,0.0539 / 0 / 0.144
UGACCGCUCG,0.196,0.382 / 0.162 / 0.166,0.387 / 0.530 / 0.0696,0.0539 / 0.0404 / 0.574
UGAGCGACCG,0.196,0.122 / 0.0359 / 0.0553,0 / 0 / 0,0 / 0 / 0
UGCCCGUGGG,0.196,0.122 / 0.0719 / 0.0369,0 / 0 / 0,0 / 0 / 0
UGCGCGCGUG,0.222,0.104 / 0.0898 / 0.0738,0 / 0 / 0.0232,0 / 0 / 0
UGCUCGUCGG,0.183,0.104 / 0.0898 / 0.0922,0 / 0 / 0,0 / 0 / 0
UGGCCGUCCG,0.261,0.0869 / 0.162 / 0.221,0 / 0 / 0.0232,0 / 0 / 0
UGGCCGUUUG,0.405,0.122 / 0.162 / 0.221,0.0552 / 0 / 0,0 / 0.0202 / 0
UGUACGAACG,0.157,0.174 / 0.108 / 0.0922,0.0276 / 0 / 0,0 / 0 / 0
UGUGCGAACG,0.248,0.0521 / 0.108 / 0.0553,0.0276 / 0 / 0.0464,0 / 0 / 0
UGUUCGGCAG,0.261,0.834 / 0.790 / 0.535,0.0552 / 0 / 0.0232,0 / 0 / 0
UUACCGUGUG,0.314,0.174 / 0.144 / 0.184,0.0276 / 0 / 0,0 / 0 / 0
UUAGCGAUUG,0.445,0.104 / 0.162 / 0.0553,0 / 0 / 0,0 / 0 / 0
UUAGCGCCUG,0.314,0.0695 / 0.0359 / 0.111,0.0276 / 0 / 0,0 / 0 / 0
UUAGCGCGGG,0.261,0.122 / 0.0539 / 0.0738,0 / 0 / 0,0 / 0 / 0
UUAUCGAUAG,0.340,0.139 / 0.0719 / 0.0922,0.0276 / 0 / 0.209,0 / 0 / 0
UUCCCGGUGG,0.248,0.0695 / 0.0898 / 0.0553,0 / 0.0252 / 0,0 / 0 / 0
UUCGCGGGGG,0.183,0.0174 / 0.0359 / 0.0369,0 / 0 / 0,0 / 0 / 0
UUGUCGGAAG,0.209,0.156 / 0.126 / 0.0922,0 / 0 / 0,0 / 0 / 0
UUUACGAAAG,0.209,0.174 / 0.108 / 0.0922,0 / 0 / 0,0 / 0 / 0
UUUUCGCGAG,0.0523,0.0869 / 0.0898 / 0.0369,0.110 / 0 / 0.0232,0 / 0 / 0

For reference, wild type rose from 20.7 per thousand in the pool to 195, 198, 203 (inoculated region), 629, 591, 734 (leaf margin) and 942, 870, 868 (systemic leaves).
Samples held 36,220 to 57,551 reads, so the smallest values rest on one or two reads.